Anti-infective test results gathered from many reports (values: NIAID ChemDB through PubChem).

Shared fields: tests in culture

ECn: concentration that inhibits the pathogen or its effect by n%.

compound	agent	cells	strain	tested at	changes	read by	conditions	read-out	result
NC(=O)c1c[se]c([C@@H]2O[C@H](CO)[C@@H](O)[C@H]2O)n1	West Nile virus	VERO	NEW YORK			cytopathic effect / visual reading		EC50	20 µg/mL
O=C(Nc1ccccc1)c1ccccc1OP(=O)(Oc1ccccc1)c1ccccc1	Mycobacterium kansasii		My 235/80				14 d	MIC	500 µM
NC(=O)c1nc(F)c[nH]c1=O	Influenza C virus	MDCK	JJ/50			plaque count		EC50	0.03 µg/mL
CC(C)(CO)C(=O)SCCOP(=O)(NCc1ccccc1)OC[C@H]1O[C@@H](n2cnc3c(=O)[nH]c(N)nc32)[C@](C)(O)[C@@H]1O	Hepatitis C virus	Replicon cells	GT1b		L31V	replicon		fold resistance	0.92
C[C@@H](c1nc(-c2ccc(C#N)cc2)cs1)[C@](O)(Cn1cnnc1)c1ccc(F)cc1F	Candida albicans		A28924					MIC	0.25 µg/mL
Nc1ccnc2c1ncn2[C@H]1C=C[C@@H](OCP(=O)(O)O)O1	Adenovirus		adenoid 75 (TYPE 5)			cytopathic effect		EC50	100 µg/mL
O=c1[nH]c(=O)n([C@@H]2O[C@H](CO)[C@@H](O)[C@H]2O)cc1F	West Nile virus	VERO	NEW YORK			cytopathic effect		EC50	>0.82 µg/mL
CCOC(=O)Nc1cc2[nH]c(-c3ccc4c(c3)OCO4)nc2c(NC(c2ccccc2)c2ccccc2)n1	Encephalitozoon intestinalis	RK-13		0.01 µg/mL				inhibition	26.8%
CCO/N=C/c1ccc(OCCC2CCN(c3ccc(C)nn3)CC2)cc1	Rhinovirus	KB	K6579 (ICAM-1 receptor group 100)			neutral red		EC50	0.014 µM
O=C1c2cc(Cl)ccc2OP(=O)(c2ccccc2)N1c1ccc(Cl)c(Cl)c1	Mycobacterium kansasii		My 6509/96				21 d	MIC	16 µM
CCOc1cc(Cc2cnc(N)nc2N)cc(OCC)c1-n1cccc1	Mycobacterium ulcerans		Isolate 842					MIC	0.5 µg/mL
C#CC[C@@H](C(=O)N[C@H](/C=C/C(=O)OCC)C[C@@H]1CCNC1=O)n1cccc(NC(=O)c2cc(C)on2)c1=O	Rhinovirus	H1-HELA	Serotype 39			cytopathic effect / XTT		EC50	0.043 µM
CN[C@@H]1[C@H](O[C@H]2[C@H](O[C@H]3[C@H](O)[C@@H](O)[C@H](N=C(N)N)[C@@H](O)[C@@H]3N=C(N)N)O[C@@H](C)[C@]2(O)C=O)O[C@@H](CO)[C@H](O)[C@H]1O	Klebsiella pneumoniae			250 µg/disc		agar diffusion		zone	20 mm
CO[C@@H]1[C@H](OC(=O)NC(=O)CCl)CC[C@]2(CO2)[C@H]1[C@@]1(C)O[C@@H]1CC=C(C)C	Encephalitozoon intestinalis	RK-13		0.00005 µg/mL				inhibition	47.6%
NC(=O)c1[nH]nc([C@@H]2O[C@H](CO)[C@@H](O)[C@H]2O)c1O	West Nile virus	VERO	Uganda			cytopathic effect		EC50	0.5 µg/mL
O=C(Nc1ccc(C(F)(F)F)cc1)c1cc(Cl)ccc1OP(=O)(OCc1ccccc1)OCc1ccccc1	Mycobacterium kansasii		My 235/80				21 d	MIC	32 µM
CO[C@H]1/C=C/O[C@@]2(C)Oc3c(C)c(O)c4c(O)c(c5c(c4c3C2=O)NC2(CCN(CC(C)C)CC2)N=5)=NC(=O)/C(C)=C\C=C\[C@H](C)[C@H](O)[C@@H](C)[C@@H](O)[C@@H](C)[C@H](OC(C)=O)[C@@H]1C	Staphylococcus aureus		209P					MIC	0.016 µg/mL
CN(C)c1cc(NC(=O)CNC(C)(C)C)c(O)c2c1C[C@H]1C[C@H]3[C@H](N(C)C)C(=O)C(C(N)=O)=C(O)[C@@]3(O)C(=O)C1=C2O	Mycobacterium abscessus		X42			broth dilution		MIC	0.5 µg/mL
CCOC(=O)Nc1cc2c(c(N)n1)N=C(c1cccc(OC)c1)CO2	Encephalitozoon intestinalis	RK-13		1 µg/mL				inhibition	70.6%
O=C(Nc1ccc(Cl)c(Cl)c1)c1cc(Cl)ccc1OP(=O)(Oc1ccccc1)Oc1ccccc1	Mycobacterium kansasii		My 6509/96				7 d	MIC	4 µM
NC(=O)c1ncn([C@@H]2O[C@H](CO)[C@@H](O)[C@H]2O)n1	Respiratory syncytial virus	HEP-2	LONG			plaque count		EC50	11.1 µM
O=C(Nc1ccc(Br)cc1)c1cc(Cl)ccc1OP(=O)(c1ccccc1)c1ccccc1	Mycobacterium kansasii		My 6509/96				14 d	MIC	8 µM
Nc1ncnc2c1ncn2C[C@@H](CO)OCP(=O)(O)O	Adenovirus		TAK (TYPE 41)			virus yield		EC90	7 µg/mL
C[C@H](Cc1ccc(O)c(O)c1)[C@@H](C)Cc1ccc(O)c(O)c1	Candida lusitaniae		CCC 131-2000			broth dilution		MIC80	500 µg/mL
CO[C@H]1[C@@H](OC(=O)/C=C/C=C/C=C/C=C/C(=O)O)CC[C@@]2(CO2)[C@@H]1[C@@]1(C)O[C@@H]1CC=C(C)C	Encephalitozoon intestinalis	RK-13		0.0001 µg/mL				inhibition	64.3%
O=C(Nc1ccc(C(F)(F)F)cc1)c1cc(Br)ccc1OP(=O)(Oc1ccccc1)Oc1ccccc1	Mycobacterium kansasii		My 235/80				14 d	MIC	4 µM
Nc1nc2c(ncn2CCOCP(=O)(O)O)c(=O)[nH]1	Parainfluenza virus		SF (TYPE 5)			virus yield		EC90	3 µg/mL
CCCSc1ccc2nc(NC(=O)OC)[nH]c2c1	Encephalitozoon intestinalis	RK-13		0.01 µg/mL				inhibition	66%
CO[C@H]1/C=C/O[C@@]2(C)Oc3c(C)c(O)c4c(=O)c(c5oc6cc(N7CCN(CC(C)C)CC7)cc(=O)c6nc5c4c3=C2O)NC(=O)/C(C)=C\C=C\[C@H](C)[C@H](O)[C@@H](C)[C@@H](O)[C@@H](C)[C@H](OC(C)=O)[C@@H]1C	Staphylococcus aureus		16 strains (methicillin- quinolone-resistant)					MIC50	0.0078 µg/mL
Nc1ccn([C@@H]2C[C@H](CO)[C@@H](O)[C@H]2O)c(=O)n1	Vesicular stomatitis virus	RK-13				cytopathic effect		EC50	>400 µg/mL
O=C(Nc1ccc(Cl)cc1)c1cc(Cl)ccc1OP(=O)(Oc1ccccc1)Oc1ccccc1	Mycobacterium kansasii		My 235/80				14 d	MIC	8 µM
Nc1ccc(S(=O)(=O)c2ccc(N)cc2)cc1	Mycobacterium ulcerans		ATCC 35840					MIC	1 µg/mL
CC(=O)OC[C@H]1O[C@@H](n2ncc(=O)[nH]c2=O)[C@H](OC(C)=O)[C@@H]1OC(C)=O	West Nile virus	VERO	NEW YORK			cytopathic effect / visual reading		EC50	3 µg/mL
CC1=CC(=O)c2c(O)cccc2C1=O	Encephalitozoon intestinalis	RK-13		0.01 µg/mL				inhibition	6.4%
CC1(C)[C@@H](O[C@H]2O[C@H](C(=O)O)[C@@H](O)[C@H](O)[C@H]2O[C@@H]2O[C@H](C(=O)O)[C@@H](O)[C@H](O)[C@H]2O)CC[C@]2(C)[C@H]3C(=O)C=C4[C@@H]5C[C@@](C)(C(=O)O)CC[C@]5(C)CC[C@@]4(C)[C@]3(C)CC[C@@H]12	Dengue virus	VERO	Type 1 (Hawaii)			virus yield		EC50	<316 µg/mL
Nc1cc2c(ncn2[C@@H]2O[C@H](CO)[C@@H](O)[C@H]2O)c(=O)[nH]1	West Nile virus	VERO	NEW YORK			cytopathic effect / visual reading		EC50	>32 µg/mL
CC[C@H]1OC(=O)[C@H](C)[C@@H](O[C@H]2C[C@@](C)(OC)[C@@H](O)[C@H](C)O2)[C@H](C)[C@@H](O[C@@H]2O[C@H](C)C[C@H](N(C)C)[C@H]2O)[C@](C)(OC)C[C@@H](C)C(=O)[C@H](C)[C@@H](O)[C@]1(C)O	Mycobacterium massiliense		V44			broth dilution		MIC	0.25 µg/mL
O=C1c2ccccc2OP(=O)(c2ccccc2)N1c1ccccc1	Mycobacterium kansasii		My 235/80				7 d	MIC	500 µM

The last 5 rows once more:

compound | agent | cells | strain | tested at | changes | read by | conditions | read-out | result
CC1=CC(=O)c2c(O)cccc2C1=O | Encephalitozoon intestinalis | RK-13 |  | 0.01 µg/mL |  |  |  | inhibition | 6.4%
CC1(C)[C@@H](O[C@H]2O[C@H](C(=O)O)[C@@H](O)[C@H](O)[C@H]2O[C@@H]2O[C@H](C(=O)O)[C@@H](O)[C@H](O)[C@H]2O)CC[C@]2(C)[C@H]3C(=O)C=C4[C@@H]5C[C@@](C)(C(=O)O)CC[C@]5(C)CC[C@@]4(C)[C@]3(C)CC[C@@H]12 | Dengue virus | VERO | Type 1 (Hawaii) |  |  | virus yield |  | EC50 | <316 µg/mL
Nc1cc2c(ncn2[C@@H]2O[C@H](CO)[C@@H](O)[C@H]2O)c(=O)[nH]1 | West Nile virus | VERO | NEW YORK |  |  | cytopathic effect / visual reading |  | EC50 | >32 µg/mL
CC[C@H]1OC(=O)[C@H](C)[C@@H](O[C@H]2C[C@@](C)(OC)[C@@H](O)[C@H](C)O2)[C@H](C)[C@@H](O[C@@H]2O[C@H](C)C[C@H](N(C)C)[C@H]2O)[C@](C)(OC)C[C@@H](C)C(=O)[C@H](C)[C@@H](O)[C@]1(C)O | Mycobacterium massiliense |  | V44 |  |  | broth dilution |  | MIC | 0.25 µg/mL
O=C1c2ccccc2OP(=O)(c2ccccc2)N1c1ccccc1 | Mycobacterium kansasii |  | My 235/80 |  |  |  | 7 d | MIC | 500 µM

Fold resistance: result on the changed form divided by that on wild type. Neighbouring rows are from separate reports. An empty or dashed field is not shown. A number after MIC or MFC names an inhibition level or a share of isolates. Zones are inhibition diameters on agar. Percent inhibition refers to the dose given; in toxicity tests it is the harm to the cells.